Compound potency records, mixed from different reports. Data source: NIAID ChemDB in PubChem.

Shared fields: host cell toxicity; measure: CC50

Conditions beyond the fields shown may differ between rows.

smiles	method	setting	cells	result
C=C(C)C1CC[C@]2(C(=O)O)CC[C@]3(C)C(CCC4[C@@]5(C)C[C@@H](OC(C)=O)[C@H](O)C(C)(C)C5CC[C@]43C)C12	XTT		1A2	15.9 µg/mL
CC(=O)NC(CCSC[C@H]1O[C@@H](n2ccc3c(N)ncnc32)[C@H](O)[C@@H]1O)C(=O)O			PRK/E6SM	400 µg/mL
O=C(Oc1cc(Cl)ccc1C(=O)Nc1ccc(C(F)(F)F)cc1)c1cnccn1	tetrazolium		HepG2 cells	1.66 µM
C=C1CN(S(=O)(=O)c2ccc(COCCCC)cc2)CCCN(Cc2ccccc2)CCCN(S(=O)(=O)c2ccc(COCCCC)cc2)C1	trypan blue / propidium iodide		SupT1	>75 µM
Cc1ccccc1C1CCN(C(=O)c2cc3c([nH]c4ccccc43)c(-c3cccs3)n2)CC1	MTT		C8166	>400 µM
Cc1cc(CCCCCCCOc2ccc(C3=NCCO3)cc2)on1	crystal violet		WIS HELA	50 µg/mL
O=C(O)c1cn(/N=C/c2ccccc2)c(=O)c2ccccc12			HEP-2/L-929/VERO	100 µM
COc1cc2c(cc1OC)C(CC1(C)OCCO1)=NCC2			RAJI	<7.5 µM
CC1(Cc2ccccc2)OS(=O)(=O)C=C1OCc1ccccc1			HEL fibroblasts	68 µM
C=C(C)[C@@H]1CC[C@]2(C(=O)NCCO)CC[C@@]3(C)C(CCC4[C@@]5(C)CC[C@H](O)C(C)(C)C5CC[C@]43C)C12	MTT		MOLT-4/8	4.81 µM
c1ccc(-n2nccc2CCCCCCOc2ccc3c(c2)oc2ccccc23)cc1	crystal violet		WIS HELA	50 µg/mL
COc1ncnc2c1ncn2C(C)CO			U-937	>100 µM
O=C(c1cc2c([nH]c3ccccc32)c(-c2cccs2)n1)N1CCC(c2ccc(F)cc2)CC1	MTT		C8166	>400 µM
CCCCCCCCN=C(N)c1ccc(N2CCN(c3ccc(C(N)=NCCCCCCCC)cc3)CC2)cc1			WI-38	2 µg/mL
Nc1ncnc2c([C@@H]3O[C@H](CO)C[C@H]3O)[nH]nc12			PRK/E6SM	>400 µg/mL
Cc1ccc(S(=O)(=O)N2CCCN(Cc3ccccc3)CCCN(S(=O)(=O)c3ccc(C)cc3)CC(CCl)C2)cc1	trypan blue / propidium iodide		SupT1	>75 µM
CCOC(=O)CCCCCOc1cccc(CN(C(=O)c2ccc(-c3cccc(OCC)c3)cc2)C(C)C)c1			RAJI	>20 µM
CCCCc1nc2cc(/C=C/C(=O)NO)ccc2n1CCN(CC)CC	sulforhodamine		NFF cells	1.5 µM
O=C(NCc1ccc(Cl)cc1)c1cn2c(CCO)cc3cc(CN4CCOCC4)cc(c1=O)c32	MTS		CBL	>20.8 µM
O=C(O)c1cn(/N=C/c2ccc(Br)cc2)c(=O)c2ccccc12			HEP-2/L-929/VERO	80 µM
C=C1CN(S(=O)(=O)c2ccc(C)cc2)CCCN(C(C)=O)CCCN(S(=O)(=O)c2ccc(C)cc2)C1	trypan blue / propidium iodide		SupT1	>75 µM
Nc1ncc2ncn(CCCO)c2n1			PBL	>100 µM
O=C(O)c1ccccc1/C=N/n1cc(C(=O)O)c2ccccc2c1=O			HEP-2/L-929/VERO	600 µM
Cn1cc(C(=O)NCc2ccc(Cl)cc2)c(=O)c2c1SC(CN1CCOCC1)C2	MTS		BCBL-1	>23.1 µM
CC(=O)OC(C(C)C(C)C(C)(C)O)C1OC12C(O)CC1C3CCC4CC(=O)CCC4C3CCC12CO	MTT		HT-29	>50 µg/mL
Nc1ccn(C[C@H]2COP(=O)(O)CO2)c(=O)n1			MA-104	850 µM
C=C1CN(S(=O)(=O)c2ccc(C)cc2)CCCN(Cc2ccncc2)CCCN(S(=O)(=O)c2ccc(C)cc2)C1	trypan blue / propidium iodide		SupT1	>75 µM
O=c1cc(CCl)nc2c3ncn([C@@H]4O[C@H](COP(=O)(O)O)[C@@H](O)[C@H]4O)c3ncn12			PBL	150 µM
Cc1cc(CCCCCCCOc2ccc3c(c2)[nH]c2ccccc23)on1	crystal violet		WIS HELA	25 µg/mL
Nc1c(-c2nc(CCl)cc(=O)[nH]2)ncn1[C@@H]1O[C@H](CO)[C@@H](O)[C@H]1O			PBL	20 µM
CCN(CC)CCN1C(=O)c2ccccc2NC1c1cc(OC)c(OC)c(OC)c1	luminescence		HepG2 cells	>30 µM
O=C(Oc1cc(Cl)ccc1C(=O)Nc1cccc(C(F)(F)F)c1)c1cnccn1	tetrazolium		HepG2 cells	6.28 µM
COC(=O)c1cc(-c2cccs2)nc2ccccc12			RAJI	>20 µM
O=S1(=O)C=C(OCc2ccccc2)C2(CCc3ccccc3C2)O1			HEL fibroblasts	131 µM
CC(C)CCN=C(N)c1ccc(N2CCN(c3ccc(C(N)=NCCC(C)C)cc3)CC2)cc1			WI-38	>0.9 µg/mL
Nc1nc(Cl)c2ncn(CCO)c2n1			PBL	>100 µM
Cc1cc(=O)oc2cc(OCc3cn(Cc4cc(=O)oc5ccc6ccccc6c45)nn3)ccc12	MTT		HBL100	52.03 µg/mL
COc1ccc(C(O)C(Br)N=[N+]=[N-])cc1OC			HEK 293	<13.5 µM
Nc1nc(Cl)c2ncn(CCCO)c2n1			U-937	>100 µM
Nc1ncnc2c1ncn2[C@H]1[C@H](O)[C@H](O)[C@@H](CO)C12CC2			Huh7 ET	>100 µM
CC(=O)N[C@@H](Cc1ccccc1)C(=O)Oc1cc(Br)ccc1C(=O)Nc1ccc(C(F)(F)F)cc1	MTT		Human PBMCs	48.7 µM
CCCCCCCN=C(N)c1ccc(N2CCN(c3ccc(C(N)=NCCCCCCC)cc3)CC2)cc1			WI-38	>3.4 µg/mL
CCN(CC)CCN1C(=O)c2ccccc2NC1c1ccc(C)cc1	luminescence		HepG2 cells	>30 µM
CN(C(=O)c1ccncc1)c1cc(C(F)(F)F)ccc1N1CCCCC1	MTS		Huh7/Rep-Feo1b	>30 µM
CCOC(=O)/C=C/[C@H](C[C@@H]1CCNC1=O)NC(=O)[C@H](Cc1ccccc1)NC(=O)[C@H](CC(C)C)NC(=O)COc1ccccc1			H1-HELA	>100 µM
CC1(C)CC[C@@]2(C(=O)NCc3cn(Cc4ccccc4Cn4cc(CNC(=O)[C@]56CCC(C)(C)CC5C5=CCC7[C@@]8(C)CC[C@H](O)C(C)(C)C8CC[C@@]7(C)[C@]5(C)C[C@H]6O)nn4)nn3)C(C1)C1=CCC3[C@@]4(C)CC[C@H](O)C(C)(C)C4CC[C@@]3(C)[C@]1(C)C[C@H]2O	resazurin		293T	>100 µM
CONC(=O)c1cccc[n+]1[O-]	MTT		Huh-luc/neo 7	900 µM
CCN(CC)CCN1C(=O)c2ccccc2NC1c1ccc(OC)c(COc2ccc(NC(C)=O)cc2)c1	luminescence		HepG2 cells	>20 µM
CC(C)(C)c1ccc(NC(=O)NOCCCCCC(=O)NO)cc1	sulforhodamine		NFF cells	4.9 µM
Nc1ncnc2c1ncn2C[C@H](O)CO			PRK/E6SM	>400 µg/mL
O=C(O)c1cn(/N=C/c2ccc(O)cc2)c(=O)c2ccccc12			HEP-2/L-929/VERO	300 µM
COc1ccc(-c2cc(C(=O)O)c3ccccc3n2)cc1OC			BJ	>20 µM
CCN(CC)CCN1C(=O)c2ccccc2NC1c1cccc(F)c1	luminescence		HepG2 cells	>20 µM
CS(=O)(=O)N1CC(C(=O)NC2CC3(C2)CC(c2nc4cc(Cl)ccc4o2)C3)C1	absorbance		Primary human hepatocytes	>100 µM
COc1cc([C@@H]2c3cc4c(cc3[C@@H](O[C@@H]3O[C@@H]5CO[C@@H](C)O[C@H]5[C@H](O)[C@H]3O)[C@H]3COC(=O)[C@H]23)OCO4)cc(OC)c1O	resazurin		DLD-1	2.5 µg/mL
CCOC(=O)c1ccc(OCCC2CCN(c3ccc(C)nn3)CC2)cc1			H1-HELA	>100 µM
Nc1c(-c2nccc(=O)[nH]2)ncn1[C@@H]1O[C@H](CO)[C@@H](O)[C@H]1O			PBL	1000 µM
CCOC(=O)c1c(CSc2ccccc2)n(C)c2cc(Br)c(O)c(CN(C)C)c12	absorbance	5 d	HepAD38	>10 µM
O=C(c1cc2c([nH]c3ccccc32)c(-c2cccs2)n1)N1CCC(c2ccccc2Cl)CC1	MTT		C8166	>400 µM
CN[C@@H]1[C@H](O[C@@H]2OC[C@@H](O)[C@H](O)[C@H]2O)[C@@H](O)[C@H](O[C@H]2c3cc(C)c(C(=O)N[C@H](C)C(=O)O)c(O)c3-c3c(cc4c(c3O)C(=O)c3cc(OC)cc(O)c3C4=O)[C@@H]2O)O[C@@H]1C	MTS		CD4+ T-cell	>100 µM
COc1cccc(C2CCN(C(=O)c3cc4c([nH]c5ccccc54)c(-c4cccs4)n3)CC2)c1	MTT		C8166	256 µM
CC(=O)OC(C(C)C(C)C(C)(C)OC(C)=O)C1OC12C(O)CC1C3CCC4CC(=O)CCC4C3CCC12CO	MTT		P-388	>50 µg/mL
C/C(=N\NC(=O)c1ccccc1)c1cccc(/C(C)=N/NC(=O)c2ccccc2)n1	MTT		HCT116	>100 µM
CC(C)CC1(Cc2ccccc2)OS(=O)(=O)C=C1OCc1ccccc1			HEL fibroblasts	102 µM
COc1cc2c(cc1OC)C1(CC=CCC1)N(C(C)=O)CC2			HepG2	<7.5 µM
O=C(Nc1ccc(Cl)c(Cl)c1)c1cc(Cl)ccc1O	tetrazolium		HepG2 cells	0.84 µM
CCOC(=O)/C=C/[C@H](CCC(N)=O)NC(=O)[C@H](Cc1ccccc1)NC(=O)[C@H](CC(C)C)NC(=O)OCc1ccccc1			H1-HELA	>320 µM
CC1(C)CC[C@@]2(C(=O)NCc3cn(CC(CO)(Cn4cc(CNC(=O)[C@]56CCC(C)(C)CC5C5=CCC7[C@@]8(C)CC[C@H](O)C(C)(C)C8CC[C@@]7(C)[C@]5(C)C[C@H]6O)nn4)[N+]4=N[N+](CNC(=O)[C@]56CCC(C)(C)CC5C5=CCC7[C@@]8(C)CC[C@H](O)C(C)(C)C8CC[C@@]7(C)[C@]5(C)C[C@H]6O)=CC4)nn3)C(C1)C1=CCC3[C@@]4(C)CC[C@H](O)C(C)(C)C4CC[C@@]3(C)[C@]1(C)C[C@H]2O	resazurin		293T	>100 µM
O=C(Oc1cc(Cl)ccc1C(=O)Nc1ccc(C(F)(F)F)cc1)c1ccccc1	tetrazolium		HepG2 cells	2.4 µM
Cc1cc(CCCCCCCOc2cccc3ccccc23)on1	crystal violet		WIS HELA	>50 µg/mL
COCC(=O)NC(CCSC[C@H]1O[C@@H](n2ccc3c(N)ncnc32)[C@H](O)[C@@H]1O)C(=O)OC(C)C			PRK/E6SM	>400 µg/mL
CCN(CC)CCN1C(=O)c2ccccc2NC1c1ccc(F)cc1	luminescence		HepG2 cells	>20 µM
O=C(O)c1cn(/N=C/c2ccccc2Cl)c(=O)c2ccccc12			HEP-2/L-929/VERO	30 µM
COc1cc2nc(N3CCCN(C)CC3)nc(NC3CCN(Cc4ccccc4)CC3)c2cc1OC	fluorescence		MEF	11 µM
Cc1csc(CCCCCCCOc2cc(C)nc3ccccc23)n1	crystal violet		WIS HELA	25 µg/mL
Cc1cc(=O)oc2cc(OCc3cn(Cc4cc(=O)oc5ccc(Cl)cc45)nn3)ccc12	MTT		HBL100	36.91 µg/mL
CCOC(=O)/C=C/[C@H](CCC(N)=O)NC(=O)[C@H](Cc1ccc(C)cc1)NC(=O)[C@@H](NC(=O)c1ccc[nH]1)C(C)(C)C			H1-HELA	>100 µM
c1ccc(-n2nccc2CCCCCCOc2cccc3ccccc23)cc1	crystal violet		WIS HELA	25 µg/mL

Repeating the final 4 entries:

smiles | method | setting | cells | result
Cc1csc(CCCCCCCOc2cc(C)nc3ccccc23)n1 | crystal violet |  | WIS HELA | 25 µg/mL
Cc1cc(=O)oc2cc(OCc3cn(Cc4cc(=O)oc5ccc(Cl)cc45)nn3)ccc12 | MTT |  | HBL100 | 36.91 µg/mL
CCOC(=O)/C=C/[C@H](CCC(N)=O)NC(=O)[C@H](Cc1ccc(C)cc1)NC(=O)[C@@H](NC(=O)c1ccc[nH]1)C(C)(C)C |  |  | H1-HELA | >100 µM
c1ccc(-n2nccc2CCCCCCOc2cccc3ccccc23)cc1 | crystal violet |  | WIS HELA | 25 µg/mL

Blank or dashed fields: not listed here. CCn: concentration that lowers growth or viability of the cells by n%.